PubChem BioAssay AID1259414, Drosophila RNAi Screening Center – 2018

Test: 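Genome-wide screen for host control of endosymbiont load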 (primary screen)
System: Drosophila JW18 cells infected with Wolbachia
Reagent: long dsRNA against Drosophila genes, 0.25 µg dsRNA per well of a 384-well plate
Timing: 5 days
Treatment: cells persistently infected with Wolbachia before knock-down; no added drug
Measurement: 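Automated imaging of bacterial rRNA staining divided by host cell count, reported as plate-normalised robust z-score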
Direction: Wolbachia per cell robust z: higher = more Wolbachia per host cell than the plate typical
Call rule: 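Active if absolute robust z reaches 1.5 in two or more of three replicates, leaving out multi- or no-target dsRNAs, genes unexpressed in JW18 and A1 wells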
In all, the deposit lists about 24,000 reagents; below is an unselected part of those with a known target gene and a result. In the full data, about 1,210 (5%) got an active call. 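Inactive calls also include excluded dsRNAs with several or no targets, genes unexpressed in JW18, and well A1, regardless of score.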 Reagents against one gene are numbered here. A plus sign joins genes that one reagent is predicted to hit. No sequences are given here.

target gene | reagent | Wolbachia per cell robust z, rep 1 | Wolbachia per cell robust z, rep 2 | Wolbachia per cell robust z, rep 3 | outcome
CG9743 | 1 | 1.54 | 0.95 | 0.987 | inactive
CG9743 | 2 | -0.585 | -0.455 | -1.09 | inactive
CG15126 | 1 | -0.271 | -0.262 | -3.49 | inactive
CG11700 | 1 | 0.43 | 1.63 | 2.09 | active
CG11700 | 2 | 2.95 | 2.92 | 4.06 | active
CtsK2 | 1 | -0.0195 | 0.911 | 0.496 | inactive
CtsK2 | 2 | -1.57 | 2.15 | 0.0834 | inactive
Cubn2 | 1 | 0.631 | 0.0105 | 0.0532 | inactive
Cubn2 | 2 | -0.239 | 0.344 | -1.42 | inactive
CG7742 | 1 | 0.228 | 0.153 | 0.221 | inactive
Rad17 | 1 | 0.484 | 1.01 | 0.588 | inactive
sll | 1 | -2.8 | 0.788 | 0.98 | inactive
sll | 2 | -1.18 | 1.02 | -2.01 | inactive
CR18275 | 1 | -3.85 | 0.544 | -0.0682 | inactive
CR18275 | 2 | -5.94 | 0.309 | -0.804 | inactive
CG17906 | 1 | 0.651 | -1.55 | -0.588 | inactive
mib1 | 1 | 0.854 | 1.38 | -0.136 | inactive
ppk3 | 1 | 1.62 | 0.409 | 0.574 | inactive
ppk3 | 2 | -1.17 | -0.462 | 0.411 | inactive
Sps2 | 1 | -0.647 | -1.29 | -0.628 | inactive
Sps2 | 2 | 0.949 | -0.309 | 0.436 | inactive
CG11333 | 1 | -0.807 | -4.49 | -0.371 | inactive
CG13031 | 1 | -0.897 | -1.97 | -2.09 | inactive
CG17380 | 1 | -0.688 | 0.241 | -0.371 | inactive
CG5498 | 1 | -2.8 | -0.912 | -0.807 | inactive
Nup154 | 1 | 0.354 | 0.705 | 0.899 | inactive
Nup154 | 2 | 1.49 | 2.23 | 1.81 | active
Nost | 1 | -0.377 | -0.785 | -1.63 | inactive
Nost | 2 | -0.711 | 0.374 | 0.35 | inactive
Nost | 3 | -0.657 | -0.939 | 1.7 | inactive
Nost | 4 | 0.376 | 1.04 | 1.27 | inactive
Ir7g | 1 | 0.306 | 0.335 | 0.108 | inactive
Ir7g | 2 | 1.46 | 0.303 | 0.185 | inactive
BORCS7 + CG13430 | 1 | 0.465 | 0.175 | -0.668 | inactive
BORCS7 + CG13430 | 2 | -1.19 | 0.254 | 1.01 | inactive
Oli | 1 | 1.31 | 0.0585 | -0.104 | inactive
Oli | 2 | -0.766 | 0.105 | -0.978 | inactive
CG34132 | 1 | 1.36 | 0.812 | -4.03 | inactive
CG14402 | 1 | 0.346 | -1.16 | -0.0642 | inactive
Hsp26 | 1 | -0.377 | 0.793 | -0.7 | inactive
CG31418 | 1 | 0.356 | 0.518 | 0.937 | inactive
CG31418 | 2 | -0.404 | 0.573 | -0.388 | inactive
Cpr47Eb | 1 | 1.22 | 0.355 | 1.32 | inactive
CG8065 | 1 | 0.143 | 0.234 | 0.156 | inactive
Eglp3 | 1 | -0.899 | -2.05 | -1.22 | inactive
Eglp3 | 2 | -0.303 | -0.181 | -4.93 | inactive

Sorted by “Wolbachia per cell robust z, rep 3” (high to low): some entries from above
target gene | reagent | Wolbachia per cell robust z, rep 1 | Wolbachia per cell robust z, rep 2 | Wolbachia per cell robust z, rep 3 | outcome
BORCS7 + CG13430 | 2 | -1.19 | 0.254 | 1.01 | inactive
Oli | 1 | 1.31 | 0.0585 | -0.104 | inactive
Oli | 2 | -0.766 | 0.105 | -0.978 | inactive
